Measured values from several laboratories, pooled; numbers as filed in NIAID ChemDB.

All rows: growth or infection tests; organism: HIV-1; method: cytopathic effect / XTT; read-out: EC50

An empty or dashed field is not shown. Conditions beyond the fields shown may differ between rows. ECn is the concentration giving n% inhibition of infection, replication or growth.

structure | mutations | strain or isolate | cells | result
Nc1nc2c(ncn2[C@@H]2O[C@H](CO)C[C@@H]2F)c(=O)[nH]1 | - | LAI | ATH-8 + ATH8 | ~50 µM
CC(C)=CCOc1cc(NC(=S)c2ccoc2C)ccc1Cl | RT-Y181C | E BPTU-resistant (RT Y181C) | CEM + CEM-SS | 0.4 µM
CCCCCCCCCCCCCC(=O)N[C@@H](CS)C(=O)N[C@@H](C)C(=O)N[C@H](C(=O)N[C@@H](C)C(=O)N[C@@H](Cc1ccc(O)cc1)C(=O)N[C@@H](Cc1c[n+](C)cn1C)C(=O)OC)C(C)C | - | - | CEM + CEM-SS | <12.5 µg/mL
Nc1nc(Cl)c2ncn([C@@H]3O[C@H](CO)C[C@@H]3F)c2n1 | - | LAI | ATH-8 + ATH8 | <50 µM
COc1ccc([C@H]2Oc3cc(OCc4ccccc4)c(O)cc3[C@@H]2C)c(OC)c1 | - | RF | CEM + CEM-SS | >51.4 µM
Clc1cccc(Cl)c1C1SCc2nc3ncccc3n21 | - | RF | CEM | 21 µM
COc1ccc2c(c1)OC[C@@H]1c3cc(CC=C(C)C)c(OCc4ccccc4)cc3O[C@H]21 | - | RF | CEM + CEM-SS | >35.8 µM
CC(C)[C@H](CC[C@@H](C)[C@H]1C[C@H](OS(=O)(=O)O)[C@H]2[C@@H]3C[C@H](O)[C@H]4C[C@@H](O)CC[C@]4(C)[C@H]3CC[C@@]21C)OC1OC[C@@H](O)[C@H](O)[C@@H]1O | - | RF | CEM + CEM-SS | >100 µM
CC1=C(C(=O)Nc2ccc(Cl)cc2)SCCS1 | - | IIIB | CEM + CEM-SS | 0.0355 µg/mL
Nc1nc2c(ncn2C[C@H](CO)OCP(=O)(O)O)c(=O)[nH]1 | - | LAV-Bru | CEM + CEM-SS | 500 µM
COc1cccc2c1N(C(=O)OC(C)C)C(CSC)C(=S)N2 | - | IIIB | MT-4 | 0.009 µM
O=[N+]([O-])c1ccc(/C=N/Nc2ccnc3c(C(F)(F)F)cc(Cl)cc23)o1 | - | SN 123 | CEM | 0.015 µM
Nc1nc2c(ncn2[C@H]2CO[C@@H](CO)O2)c(=O)[nH]1 | RT-K65R | - | MT-2 | 4 µM
CCC(=O)c1ccc(F)c([C@@H]2C[C@@H]2NC(=O)Nc2ccc(Cl)cn2)c1O | - | IIIB | MT-4 | 0.029 µM
Cc1cc(NS(=O)(=O)c2ccc(Nc3c4ccccc4nc4c(C(=O)Nc5ccc(S(=O)(=O)N=C(N)N)cc5)cccc34)cc2)no1 | - | RF | CEM | 28.5 µM
Cc1nnc(N)nc1/C=C/c1cccs1 | - | - | CEM | >0.00635 µM
O=C(NC1CO[C@H](CO)C1)[C@H](OCc1ccccc1)[C@H](O)[C@@H](O)[C@@H](OCc1ccccc1)C(=O)N[C@H]1c2ccccc2C[C@H]1O | - | - | MT-4 | 1.12 µM
CC(=O)N1C(=O)CC(=O)N(c2nnc(C)c(/C=C/c3ccc(N(C)C)cc3)n2)C1=S | - | - | CEM | >0.1 µM
Nc1ccn([C@H]2CC[C@@H](CO)O2)c(=O)n1 | - | IIIB | PBLC | 0.00033 µg/mL
O=C(Cc1ccccc1)Nn1c(-c2ccccc2)nc2ccccc2c1=O | - | RF | CEM + CEM-SS | 61 µM
C[C@H](CCC(=O)NC(CO)CS(=O)(=O)O)[C@H]1[C@@H](O)[C@H](O)C2C3C[C@@H](O)[C@@]4(O)C[C@@H](O)CC[C@]4(C)C3CC[C@@]21C | - | RF | CEM + CEM-SS | >100 µM
COc1cc(Cc2cnc(/N=C3\C(=O)N(CN4CCN(c5cccc(Cl)c5)CC4)c4ccc(F)cc43)nc2N)cc(OC)c1OC | - | - | CEM | >104 µg/mL
Nc1nc(NC2CC2)c2ncn([C@H]3C=C[C@@H](CO)C3)c2n1 | RT-K70E | HXB2D (RT K70E recombinant) | MT-2 | 0.7 µM
CCn1cc(C(=O)O)c(=O)c2cc(F)c(N3CCN(CN4C(=O)/C(=N\c5ncc(Cc6cc(OC)c(OC)c(OC)c6)c(N)n5)c5cc(F)ccc54)CC3)cc21 | - | - | CEM | 50.8 µg/mL
CC1=C(C(=O)Nc2cc(C(=O)OC(C)C)c(Cl)cc2F)SCCO1 | - | IIIB | MT-2/MT2(HIV-1) + MT-2 | 0.014 µg/mL
CC(C)[C@H](CC[C@@H](C)[C@H]1C[C@H](OS(=O)(=O)O)[C@H]2[C@@H]3[C@H](O)[C@H](O)[C@H]4C[C@@H](O)CC[C@]4(C)[C@H]3CC[C@@]21C)OC1OC[C@@H](O)[C@H](O)[C@@H]1O | - | RF | CEM + CEM-SS | >100 µM
Cc1nnc(N)nc1/C=C/c1ccc(N(C)C)cc1 | - | - | CEM | >0.6 µM
Cc1cc(S(=O)(=O)Nc2nnc3c(C(F)(F)F)cc(Cl)cn23)c(S)cc1Cl | - | RF | CEM | 25.4 µM
CC(C)CCC[C@@H](C)[C@H]1CC[C@H]2[C@@H]3CC[C@H]4C[C@@H](CCC=C(c5cc(Cl)c(O)c(C(=O)O)c5)c5cc(Cl)c(O)c(C(=O)O)c5)CC[C@]4(C)[C@H]3CC[C@]12C | - | IIIB | CEM | 7 µM
CC(O)[C@@H]1CC(NC(=O)[C@H](OCc2ccccc2)[C@H](O)[C@@H](O)[C@@H](OCc2ccccc2)C(=O)N[C@@H]2CO[C@H](C(C)O)C2)CO1 | - | - | MT-4 | >10 µM
CC(C)Oc1ccccc1CNC(=O)c1ccc2cnccc2n1 | - | IIIB | CEM + CEM-SS | >31 µM
CC(C)=CCC[C@]1(C)C=Cc2c(ccc3c2C(=O)C(=O)C=C3O)O1 | - | RF | MT-4 | >50 µM
CC(C)C(O)[C@@H]1CC(NC(=O)[C@H](OCc2ccccc2)[C@H](O)[C@@H](O)[C@@H](OCc2ccccc2)C(=O)N[C@H]2c3ccccc3C[C@H]2O)CO1 | - | - | MT-4 | 3.75 µM
Cc1nnc(N)nc1/C=C/c1ccc(Cl)cc1Cl | - | - | CEM | >6.33 µM
COc1ccc2c(c1)OC[C@@H]1c3cc(O)c4c(OCc5ccccc5)cccc4c3O[C@H]21 | - | RF | CEM + CEM-SS | >51 µM
Cc1cc(S(=O)(=O)Nc2nnc3c(Cl)cc(C(F)(F)F)cn23)c(S)cc1Cl | - | RF | CEM | 51.2 µM
COc1ccc2c(c1)OC[C@]1(C)c3cc(O)c(OCc4ccccc4)cc3O[C@H]21 | - | RF | CEM + CEM-SS | >10.1 µM
CCCCOC(=O)c1cc(NC(=O)C2=C(C)OCCS2)ccc1Cl | - | IIIB | CEM | 0.0001 µg/mL
O=C(NCCc1ccccc1)C1=Cc2ccncc2CC1 | - | RF | CEM + CEM-SS | >34 µM
CCCOC(=O)c1cc(NC(=S)OC(C)C)ccc1Cl | - | IIIB | CEM | 0.0000443 µg/mL
Cc1cn([C@H]2C[C@H](O)[C@@H](COC(=O)CCCCCCCCCCCN=[N+]=[N-])O2)c(=O)[nH]c1=O | - | - | CEM | 4.6 µM
COC(=O)N[C@H](C(=O)NN(Cc1ccc(C#Cc2cccnc2)cc1)C[C@@](O)(Cc1ccccc1)C(=O)N[C@H]1c2ccccc2C[C@H]1O)C(C)(C)C | - | - | MT-4 | >0.75 µM
Fc1ccccc1C1SCc2nc3ncccc3n21 | - | RF | CEM | >95.9 µM
Nc1nc(N)c2ncn([C@H]3CO[C@@H](CO)O3)c2n1 | RT-A98S F116Y Q151M T215Y | - | MT-2 | 92 µM
COc1cc(Cc2cnc(/N=C3\C(=O)N(CN4CCCC4)c4ccc(F)cc43)nc2N)cc(OC)c1OC | - | - | CEM | >121 µg/mL
CC1(C)SCc2nc3ncccc3n21 | - | RF | CEM | >386 µM
Oc1[nH]c(=S)[nH]c1/C=C1\C(c2ccccc2)=Nc2ccccc21 | - | RF | CEM + CEM-SS | >20 µM
CCN(CC)CN1C(=O)/C(=N\c2ncc(Cc3cc(OC)c(OC)c(OC)c3)c(N)n2)c2cc(F)ccc21 | - | - | CEM | >116 µg/mL

For reference, 7 entries again:

structure | mutations | strain or isolate | cells | result
COc1ccc2c(c1)OC[C@]1(C)c3cc(O)c(OCc4ccccc4)cc3O[C@H]21 | - | RF | CEM + CEM-SS | >10.1 µM
COc1ccc([C@H]2Oc3cc(OCc4ccccc4)c(O)cc3[C@@H]2C)c(OC)c1 | - | RF | CEM + CEM-SS | >51.4 µM
Cc1nnc(N)nc1/C=C/c1cccs1 | - | - | CEM | >0.00635 µM
CC1=C(C(=O)Nc2cc(C(=O)OC(C)C)c(Cl)cc2F)SCCO1 | - | IIIB | MT-2/MT2(HIV-1) + MT-2 | 0.014 µg/mL
CC(C)CCC[C@@H](C)[C@H]1CC[C@H]2[C@@H]3CC[C@H]4C[C@@H](CCC=C(c5cc(Cl)c(O)c(C(=O)O)c5)c5cc(Cl)c(O)c(C(=O)O)c5)CC[C@]4(C)[C@H]3CC[C@]12C | - | IIIB | CEM | 7 µM
Oc1[nH]c(=S)[nH]c1/C=C1\C(c2ccccc2)=Nc2ccccc21 | - | RF | CEM + CEM-SS | >20 µM
Cc1cc(S(=O)(=O)Nc2nnc3c(Cl)cc(C(F)(F)F)cn23)c(S)cc1Cl | - | RF | CEM | 51.2 µM